The exact form of at least one protein or probe is not confirmed. At least one verdict rests on a figure or table, not on a statement of the authors.
Target: MBP-VP5 (Helicoverpa armigera cypovirus 5 (HaCPV-5)) (UniProt Q3LTV8)
Experiment: EMSA
Details: 10 pmol protein, 0.1 pmol probe; 25 mM HEPES-KOH pH 7.5, 100 mM NaCl, 10 ul, 30 min at room temperature; 2% agarose gel; recombinant protein; protein details: N-terminal MBP; label: 5'-HEX on DNA1

GTGTAGTAATCGTCCATTGTGTCT (double strand) [DNA1/DNA3]
binding result: binds
